Source: PubChem BioAssay AID2451 (National Center for Advancing Translational Sciences (NCATS), 2010)
The entries are a selection whose mix differs from that of the whole data set. Records with an inconclusive call do not appear. The source made the active and inactive calls. Calls follow the shape of the dose curve; as a rule, active = well fitted inhibition curve with a large enough effect; inconclusive = small, poorly fitted or top-dose-only effect, or effect the other way; inactive = flat fitted curve, though single readings scatter.

The chains behind the UniProt entries cited, without tags or fusion partners.
UniProt A8B2U2, whole entry: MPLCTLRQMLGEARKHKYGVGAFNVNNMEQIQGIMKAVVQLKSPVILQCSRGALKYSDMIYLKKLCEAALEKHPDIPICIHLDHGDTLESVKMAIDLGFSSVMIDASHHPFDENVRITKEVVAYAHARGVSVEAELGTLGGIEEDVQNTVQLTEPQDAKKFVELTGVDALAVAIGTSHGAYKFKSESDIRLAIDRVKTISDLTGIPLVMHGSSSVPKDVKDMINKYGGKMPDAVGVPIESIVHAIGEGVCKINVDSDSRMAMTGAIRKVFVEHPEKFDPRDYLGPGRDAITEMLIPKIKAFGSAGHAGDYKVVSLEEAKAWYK

Target: Fructose-bisphosphate aldolase (Giardia intestinalis (strain ATCC 50803 / WB clone C6)) (UniProt A8B2U2)
Assay: qHTS Assay for Inhibitors of Fructose-1,6-bisphosphate Aldolase from Giardia Lamblia; also: nearly all actives have a fitted effect of over 55% in size
Conditions: purified Giardia FBPA; series mostly up to 59.6 µM; activity, negative = inhibition: at the top concentration
% is scaled to controls: 0 for no effect and ±100 for the full control effect; potency is read from the fitted curve at half-maximal effect.

Q: With `CSc1ccccc1C(=O)NCC1(N2CCCCC2)CCCCC1` as the compound, how does the “activity, negative = inhibition” value read?
A: inactive: 3.36%

Q: Which “activity, negative = inhibition” value does the source give for `COc1ccc(C(=O)NCC2(N3CCCCC3)CCCCC2)c(OC)c1OC` here?
A: inactive: -0.982%

Q: For `CC(C)(C)OC(=O)N1CCC(N(C(=O)c2ccccc2)c2ccc(F)cc2)CC1`, which “activity, negative = inhibition” value is on record?
A: inactive: -2.11%

Q: `COc1ccc(C(=O)NCC2(N3CCCCC3)CCCCC2)cc1` was tested. Which “activity, negative = inhibition” value did it give?
A: inactive: 0.679%

Q: `O=C(NCC1(N2CCCCC2)CCCCC1)c1ccc(=O)[nH]c1` was tested. Which “activity, negative = inhibition” value did it give?
A: inactive: 11.4%

Q: `O=C(OC1CN2CCC1CC2)C1c2ccccc2Oc2ccccc21` (stereo not given) was tested. Which “activity, negative = inhibition” value did it give?
A: inactive: -2.11%

Q: With `N#CC1(Nc2ccccc2)CCN(Cc2ccccc2)CC1` as the compound, how does the “activity, negative = inhibition” value read?
A: inactive: -9.8%

Q: `CCOC(=O)N1CCC(Nc2ccc(OC)cc2)CC1` was tested. Which “activity, negative = inhibition” value did it give?
A: inactive: 0.157%

Q: With `Cc1cc(C)cc(N(C(=O)c2ccccc2)C2CCN(C(=O)OC(C)(C)C)CC2)c1` as the compound, how does the “activity, negative = inhibition” value read?
A: inactive: 5.74%

Q: For `O=C(NCC1(N2CCOCC2)CCCCC1)c1cc2ccccc2o1`, which “activity, negative = inhibition” value is on record?
A: inactive: -7.74%

Q: `CCOC(=O)N1CCC(Nc2ccc(F)cc2)CC1` was tested. Which “activity, negative = inhibition” value did it give?
A: inactive: -27.6%

Q: How did the “activity, negative = inhibition” value turn out when `COc1ccc(NC2CCN(CCc3ccccc3)CC2)c(OC)c1` was run?
A: inactive: -22.2%

Q: For `O=C(NCC1(N2CCCCC2)CCCCC1)c1ccc(F)cc1`, which “activity, negative = inhibition” value is on record?
A: inactive: -4.46%

Q: With `COc1cc(C(=O)NCC2(N(C)C)CCCCC2)ccc1OC(F)F` as the compound, how does the “activity, negative = inhibition” value read?
A: inactive: 3.67%

Q: `N#CC1(Nc2ccccc2)CCN(CCc2ccccc2)CC1` was tested. Which “activity, negative = inhibition” value did it give?
A: inactive: 4%

Q: Which “activity, negative = inhibition” value does the source give for `O=C(NCC1(N2CCCCC2)CCCCC1)c1cccc([N+](=O)[O-])c1` here?
A: inactive: 3.93%

Q: For `O=C(NCC1(N2CCCCC2)CCCCC1)c1ccc(OC(F)F)cc1`, which “activity, negative = inhibition” value is on record?
A: inactive: 4.42%

Q: Which “activity, negative = inhibition” value does the source give for `O=C(NCC1(N2CCOCC2)CCCCC1)c1cc(=O)[nH]c2ccccc12` here?
A: inactive: -0.302%

Q: `COc1cc(C(=O)NCC2(N3CCCCC3)CCCCC2)ccc1OC(F)F` was tested. Which “activity, negative = inhibition” value did it give?
A: inactive: -1.18%

Q: For `COc1ccc(NC2CCN(C(=O)OC(C)(C)C)CC2)cc1`, which “activity, negative = inhibition” value is on record?
A: inactive: -23.6%

Q: For `CN1CCN(CCOC(=O)C(O)(c2ccccc2)c2ccccc2)CC1`, which “activity, negative = inhibition” value is on record?
A: inactive: -18.1%

Q: With `O=C(NCC1(N2CCCCC2)CCCCC1)c1cccc(C(F)(F)F)c1` as the compound, how does the “activity, negative = inhibition” value read?
A: inactive: 1.45%

Q: Which “activity, negative = inhibition” value does the source give for `COc1cc(OC)c(C(=O)NCC2(N(C)C)CCCCC2)cc1OC` here?
A: inactive: -2.56%

Q: For `CC(C)c1ccc(NC2CCN(C(=O)OC(C)(C)C)CC2)cc1`, which “activity, negative = inhibition” value is on record?
A: inactive: -4.16%

Q: How did the “activity, negative = inhibition” value turn out when `CN(C)c1cccc(C(=O)NCC2(N3CCCCC3)CCCCC2)c1` was run?
A: inactive: 0.0559%

Q: Which “activity, negative = inhibition” value does the source give for `O=[N+]([O-])c1cc([N+](=O)[O-])c(OC2CCCCC2O)c([N+](=O)[O-])c1` (stereo not given) here?
A: inactive: 14.9%

Q: Which “activity, negative = inhibition” value does the source give for `COc1ccc(CN(CCCl)CCCl)cc1Cl` here?
A: inactive: 6.37%

Q: How did the “activity, negative = inhibition” value turn out when `CCCOc1ccc(C(=O)NCC2(N(C)C)CCCCC2)cc1OC` was run?
A: inactive: 4.7%

Q: For `O=C(OC1CN2CCC1CC2)c1ccc([N+](=O)[O-])cc1` (stereo not given), which “activity, negative = inhibition” value is on record?
A: inactive: 0.885%

Q: How did the “activity, negative = inhibition” value turn out when `COc1ccc(C(=O)NCC2(N3CCOCC3)CCCCC2)cc1OC` was run?
A: inactive: 1.77%

Q: With `O=C(O)c1cccc(Nc2c([N+](=O)[O-])cc([N+](=O)[O-])cc2[N+](=O)[O-])c1` as the compound, how does the “activity, negative = inhibition” value read?
A: inactive: -10.6%

Q: Which “activity, negative = inhibition” value does the source give for `O=C(OC1CN2CCC1CC2)C1c2ccccc2C=Cc2ccccc21` (stereo not given) here?
A: inactive: 6.52%

Q: With `N/C(=N\O)c1c(N)no[n+]1[O-]` as the compound, how does the “activity, negative = inhibition” value read?
A: inactive: -5.81%

Q: `CCOC(=O)C(CC)C1=NC(C)(C)Cc2ccccc21.O=[N+]([O-])c1cc([N+](=O)[O-])c(O)c([N+](=O)[O-])c1` (stereo not given) was tested. Which “activity, negative = inhibition” value did it give?
A: inactive: 24.7%

Q: Which “activity, negative = inhibition” value does the source give for `N#Cc1ccc(C(=O)NCC2(N3CCCCC3)CCCCC2)cc1` here?
A: inactive: -4.56%

Q: How did the “activity, negative = inhibition” value turn out when `CC(C)(C)OC(=O)N1CCC(N(C(=O)c2ccccc2)c2ccc(Cl)cc2)CC1` was run?
A: inactive: 13.2%

Q: `CN(C)C1(CNC(=O)c2cccc(C#N)c2)CCCCC1` was tested. Which “activity, negative = inhibition” value did it give?
A: inactive: 6.76%

Q: `CCCN1CCC(Nc2cc(OC)cc(OC)c2)CC1` was tested. Which Potency did it give?
A: active: 28.2 µM

Q: `c1ccc(CN2CCC(Nc3ccccc3)CC2)cc1` was tested. Which “activity, negative = inhibition” value did it give?
A: inactive: 2%

Q: With `CN(C)c1ccc(C(=O)NCC2(N3CCCCC3)CCCCC2)cc1` as the compound, how does the “activity, negative = inhibition” value read?
A: inactive: 6.66%

Q: `CCN1CCC(Nc2cccc(F)c2)CC1` was tested. Which “activity, negative = inhibition” value did it give?
A: inactive: -15.7%

Q: How did the “activity, negative = inhibition” value turn out when `O=C(O)C1(Nc2ccccc2)CCN(Cc2ccccc2)CC1` was run?
A: inactive: 4.49%

Q: How did the “activity, negative = inhibition” value turn out when `CC(C)(C)OC(=O)N1CCC(Nc2ccccc2)CC1` was run?
A: inactive: 3.52%

Q: For `CCCOc1ccc(C(=O)NCC2(N(C)C)CCCCC2)cc1`, which “activity, negative = inhibition” value is on record?
A: inactive: 1.73%

Q: Which “activity, negative = inhibition” value does the source give for `CCOc1ncccc1C(=O)NCC1(N2CCOCC2)CCCCC1` here?
A: inactive: 1.43%

Q: For `CN1CCC(Nc2ccc(Cl)cc2)CC1`, which Potency is on record?
A: active: 20 µM

Q: For `CCCOc1ccc(C)cc1CN(CCCl)CCCl`, which “activity, negative = inhibition” value is on record?
A: inactive: -19%

Q: `COc1cccc(C(=O)N(c2cc(C)cc(C)c2)C2CCN(C(=O)OC(C)(C)C)CC2)c1` was tested. Which “activity, negative = inhibition” value did it give?
A: inactive: 7.16%

Q: How did the “activity, negative = inhibition” value turn out when `COc1cc(OC)cc(C(=O)NCC2(N3CCOCC3)CCCCC2)c1` was run?
A: inactive: 0.114%

Q: `CCC(CO)(C(=O)OC1CN2CCC1CC2)c1ccccc1` (stereo not given) was tested. Which “activity, negative = inhibition” value did it give?
A: inactive: -8.49%
